Compound potency records, mixed from different reports. Data source: NIAID ChemDB in PubChem.

Common to all: target-level tests

Percent inhibition refers to the dose given; in toxicity tests it is the harm to the cells.

structure	strain or isolate	mutations	species	endpoint	read by	protein	tested at	value
COc1ccc(-c2ccc(Cl)cc2)c(-c2ccc3cc(-c4nc5cccc(C(=O)O)c5n4C4CCCCC4)ccc3n2)c1			Hepatitis C virus	inhibition		NS5B polymerase	33 µM	104%
O=C1NC(=S)SC1=Cc1ccc(-c2cccs2)s1			Bovine viral diarrhea virus	IC50		NS5 polymerase		≤1 µM
C=CCCOC(=O)NCCCCC(C)(C)CN(C[C@@H](O)[C@H](Cc1ccccc1)NC(=O)O[C@H]1CO[C@H]2OCC[C@H]21)S(=O)(=O)c1ccc2c(c1)OCO2			HIV-1	Ki	fluorescence	Protease		<0.001 µM
O=C(O)c1ccc2c(c1)nc(-c1ccc3nc(-c4cn(-c5cccnc5Cl)c(=O)[nH]c4=O)ccc3c1)n2C1CCCCC1			Hepatitis C virus	inhibition		NS5B polymerase	100 µM	96.38%
CC(C)CC(=O)NCCCCCC(C)(C)CN(C[C@@H](O)[C@H](Cc1ccccc1)NC(=O)O[C@H]1CO[C@H]2OCC[C@H]21)S(=O)(=O)c1ccc2c(c1)OCO2			HIV-1	Ki	fluorescence	Protease		<0.001 µM
CCCCCCCC/C=C/CCCCCCCC(=O)Nc1nnc(NCC2CCCCC2)s1			Human cytomegalovirus	IC50		Polymerase		>25 µM
CN(Cc1cnc(N)nc1N)c1ccc(C(=O)NC(CCC(=O)O)C(=O)O)cc1	TYPE II		Cryptosporidium parvum	IC50		Dihydrofolate reductase		0.01 µM
O=C(CCCCCl)Nc1nnc(NCCC(c2ccccc2)c2ccccc2)s1			Human cytomegalovirus	IC50		Polymerase		>25 µM
Nc1nc(N)c(N=C/C=C/c2ccc([N+](=O)[O-])cc2)c(-c2ccccc2)n1	TYPE II		Cryptosporidium parvum	IC50		Dihydrofolate reductase		>100 µM
CC(C)(CCCNC(=O)NCc1ccccc1)CN(C[C@@H](O)[C@H](Cc1ccccc1)NC(=O)O[C@H]1CO[C@H]2OCC[C@H]21)S(=O)(=O)c1ccc2c(c1)OCO2			HIV-1	Ki	fluorescence	Protease		<0.001 µM
CSCCCN1C(=O)Cc2ccccc2C1=O	Serotype 14		Rhinovirus	IC50		Protease		>200 µM
O=C(Nc1nnc(NCc2ccc3c(c2)OCO3)s1)c1cc2ccccc2s1			Human cytomegalovirus	IC50		Polymerase		>25 µM
CS(=O)(=O)CCCN1C(=O)c2ccccc2C(CC(=O)c2ccccc2)C1=O	Serotype 14		Rhinovirus	IC50		Protease		44.6 µM
CNC(=O)OCCCC(C)(C)CN(C[C@@H](O)[C@H](Cc1ccccc1)NC(=O)O[C@H]1CO[C@H]2OCC[C@H]21)S(=O)(=O)c1cccc2c1OCO2			HIV-1	Ki	fluorescence	Protease		<0.001 µM
Clc1cc(CN2CCCNCCNCCCNCC2)cc(Cl)n1		CXCR4-H113A		IC50		CXCR4		2.02 µM
CC(C)N(C(=O)NCCCCC(C)(C)CN(C[C@@H](O)[C@H](Cc1ccccc1)NC(=O)O[C@H]1CO[C@H]2OCC[C@H]21)S(=O)(=O)c1ccc2c(c1)OCO2)C(C)C			HIV-1	Ki	fluorescence	Protease		<0.001 µM
N#Cc1cn(Cc2cccc(Cl)c2)c(=O)c2c(O)c(=O)ccn12			HIV-1	IC50	ELISA	Integrase		0.01–0.1 µM
CCOc1ccc2ccccc2c1C(=O)Nc1nnc(NCCC(=O)OC(C)(C)C)s1			Human cytomegalovirus	IC50		Polymerase		>25 µM
CCc1c(Cl)nc(N)nc1Nc1ccc(Br)cc1	TYPE II		Cryptosporidium parvum	IC50		Dihydrofolate reductase		>10 µM
N#CCC1CN(Cc2ccc(Cl)c(Cl)c2)C(=O)c2c(O)c(=O)ccn21			HIV-1	IC50	ELISA	Integrase		0.01–0.1 µM
CC(C)(CCCCNS(C)(=O)=O)CN(C[C@@H](O)[C@H](Cc1ccccc1)NC(=O)OC1COCOC1)S(=O)(=O)c1ccc2c(c1)OCO2			HIV-1	Ki	fluorescence	Protease		<0.001 µM
CC(C)c1cc(C(C)C)c(C(=O)Nc2nnc(NCCc3cnc[nH]3)s2)c(C(C)C)c1			Human cytomegalovirus	IC50		Polymerase		>25 µM
O=C(O)c1ccc(N2C(=O)C(=Cc3ccc(-c4cc(Cl)ccc4Cl)o3)SC2=S)cc1			Bovine viral diarrhea virus	IC50		NS5 polymerase		≤1 µM
O=C(NCCO)c1cccc(-c2cncc(N3CCN(c4ccncc4)CC3)n2)c1			Cytomegalovirus	inhibition		UL97 kinase	10 µM	>15%
CC(=O)N(C)c1cn2ccn(Cc3cccc(Cl)c3)c(=O)c2c(O)c1=O			HIV-1	IC50	ELISA	Integrase		<0.01 µM
O=C(CCCCCl)Nc1nnc(NC2CCCCCC2)s1			Human cytomegalovirus	IC50		Polymerase		>25 µM
CCCN=C(NC#N)NCCCC(C)(C)CN(C[C@@H](O)[C@H](Cc1ccccc1)NC(=O)O[C@H]1CO[C@H]2OCC[C@H]21)S(=O)(=O)c1ccc2c(c1)OCO2			HIV-1	Ki	fluorescence	Protease		<0.001 µM
O=C(O)CN1C(=O)C(=Cc2ccc(-c3ccc(Cl)cc3)o2)SC1=S			Bovine viral diarrhea virus	IC50		NS5 polymerase		≤1 µM
COc1ccc(S(=O)(=O)N(C[C@@H](O)[C@H](Cc2ccccc2)NC(=O)OCCS(C)(=O)=O)CC(C)(C)CCC#N)cc1			HIV-1	Ki	fluorescence	Protease		0.001–0.01 µM
O=C(O)c1ccc2c(c1)nc(-c1ccc3nc(-c4ccnc5ccccc45)ccc3c1)n2C1CCCCC1			Hepatitis C virus	inhibition		NS5B polymerase	100 µM	102%
O=c1ccn2ccn(CCOc3ccccc3Cl)c(=O)c2c1O			HIV-1	IC50	ELISA	Integrase		0.1–1 µM
c1ccc(C2CN(c3ccccc3)CCN2c2cnccn2)cc1			Cytomegalovirus	IC50		UL97 kinase		<10 µM
Cc1[nH]nc2c1C(c1cc(Br)cc(C#N)c1)(C1CC=CC1)C(C#N)=C(N)O2			Plasmodium falciparum	Ki	absorbance	Serine hydroxymethyltransferase		0.593 µM
O=C(O)c1ccc(N2C(=O)C(=Cc3ccc(-c4cc(C(F)(F)F)cc(C(F)(F)F)c4)o3)SC2=S)cc1			Bovine viral diarrhea virus	IC50		NS5 polymerase		≤1 µM
COc1ccc(N2CCN(c3cncc(-c4ccc(C(F)(F)F)cc4)n3)CC2)cc1			Cytomegalovirus	IC50		UL97 kinase		<10 µM
CS(=O)(=O)CCCN1C(=O)c2ccccc2C(C(=O)c2ccccc2)C1=O	Serotype 2		Rhinovirus	IC50		Protease		31.3 µM
Cc1cc(C)nc(-c2ccc(C=C3SC(=S)N(c4ccc(C(=O)O)cc4)C3=O)o2)c1			Bovine viral diarrhea virus	IC50		NS5 polymerase		≤1 µM
CC(C)(CCCNC(=O)OC1COCOC1)CN(C[C@@H](O)[C@H](Cc1ccccc1)NC(=O)O[C@H]1CO[C@H]2OCC[C@H]21)S(=O)(=O)c1ccc2c(c1)OCO2			HIV-1	Ki	fluorescence	Protease		<0.001 µM
O=C(O)C1C[C@@H](O)CN1C(=O)c1ccc2c(c1)nc(-c1ccc3nc(-c4ccccc4)cnc3c1)n2C1CCCCC1			Hepatitis C virus	inhibition		NS5B polymerase	33 µM	47.36%
CCNC(=O)c1cn2ccn(Cc3ccc(F)cc3)c(=O)c2c(O)c1=O			HIV-1	IC50	ELISA	Integrase		0.01–0.1 µM
CC(C)(CCCNC(=S)NCc1ccco1)CN(C[C@@H](O)[C@H](Cc1ccccc1)NC(=O)O[C@H]1CO[C@H]2OCC[C@H]21)S(=O)(=O)c1ccc2c(c1)OCO2			HIV-1	Ki	fluorescence	Protease		<0.001 µM
CCCCCCC1N=C(N)N=C(N)N1c1ccc(Cl)cc1	TYPE II		Cryptosporidium parvum	IC50		Dihydrofolate reductase		60 µM
COc1ccc(-c2ccc(Cl)cc2)c(-c2ccc3cc(-c4nc5cc(C(=O)O)ccc5n4CC(C)C)ccc3n2)c1			Hepatitis C virus	inhibition		NS5B polymerase	33 µM	98.17%
O=C(Nc1nnc(NCCCNC2CCCCC2)s1)c1ccc(Br)cc1			Human cytomegalovirus	IC50		Polymerase		<25 µM
O=C(O)c1ccc2c(c1)nc(-c1ccc3nc(-c4c(O)ccc5ccccc45)ccc3c1)n2C1CCCCC1			Hepatitis C virus	inhibition		NS5B polymerase	33 µM	101%
Cc1ccc(N2CCN(c3cncc(-c4csc5ccccc45)n3)CC2)cc1C			Cytomegalovirus	inhibition		UL97 kinase	10 µM	>15%
CSCCCN1C(=O)c2ccccc2C(C(=O)c2ccccc2)C1=O	Serotype 2		Rhinovirus	IC50		Protease		23.1 µM
CCCOC(=O)NCCC(C)(C)CN(C[C@@H](O)[C@H](Cc1ccccc1)NC(=O)O[C@H]1CO[C@H]2OCC[C@H]21)S(=O)(=O)c1ccc2c(c1)OCO2			HIV-1	Ki	fluorescence	Protease		<0.001 µM
Cc1[nH]nc2c1C(c1cc(Cl)cc(Cl)c1)(C(C)C)C(C#N)=C(N)O2			Plasmodium falciparum	Ki	absorbance	Serine hydroxymethyltransferase		0.2868 µM
O=C(NC(c1ccccc1)c1ccccc1)c1cn2ccn(Cc3cccc(Cl)c3)c(=O)c2c(O)c1=O			HIV-1	IC50	ELISA	Integrase		0.01–0.1 µM
CCCNC(=O)NCCC(C)(C)CN(C[C@@H](O)[C@H](Cc1ccccc1)NC(=O)O[C@H]1CO[C@H]2OCC[C@H]21)S(=O)(=O)c1ccc2c(c1)OCO2			HIV-1	Ki	fluorescence	Protease		<0.001 µM
O=C(O)CC(NC(=O)c1ccc2c(c1)nc(-c1ccc3nc(-c4ccccc4)cnc3c1)n2C1CCCCC1)C(=O)O			Hepatitis C virus	inhibition		NS5B polymerase	100 µM	97.02%
O=c1c(-c2ncco2)cn2ccn(Cc3cccc(Cl)c3)c(=O)c2c1O			HIV-1	IC50	ELISA	Integrase		0.01–0.1 µM
CC(C)OC(=O)NCCC(C)(C)CN(C[C@@H](O)[C@H](Cc1ccccc1)NC(=O)O[C@H]1CO[C@H]2OCC[C@H]21)S(=O)(=O)c1cccc(N)c1			HIV-1	Ki	fluorescence	Protease		<0.001 µM
COc1ccc(-c2ccc(Cl)cc2)c(-c2ccc3cc(-c4nc5cc(C(=O)O)ccc5n4C4CCCCC4)ccc3n2)c1			Hepatitis C virus	inhibition		NS5B polymerase	100 µM	100%
Cc1[nH]nc2c1C(c1cc(Cl)cc(-c3ccc(C(=O)OCc4ccccc4)cc3)c1)(C1CCC1)C(C#N)=C(N)O2			Plasmodium falciparum	Ki	absorbance	Serine hydroxymethyltransferase		1.96 µM
Nc1nc(N)c(CCCOc2ccc(NC(=O)c3cccc(S(=O)(=O)F)c3)cc2Cl)c(N)n1	TYPE I		Cryptosporidium parvum	IC50		Dihydrofolate reductase		30 µM
CN(C)c1ccc(-c2cncc(N3CCN(c4ccc(Cl)c(Cl)c4)CC3)n2)cc1			Cytomegalovirus	inhibition		UL97 kinase	10 µM	>15%
NNC(=O)c1ccncc1	H37RV (INH 10 ug/mL-R)		Mycobacterium tuberculosis	inhibition		Alpha-ketoglutarate dehydrogenase	1000 µM	0%
CC(C)(CCCCN)CN(C[C@@H](O)[C@H](Cc1ccccc1)NC(=O)O[C@H]1CO[C@H]2OCC[C@H]21)S(=O)(=O)c1cccc2c1OCCO2			HIV-1	Ki	fluorescence	Protease		<0.001 µM
CN1C(=O)c2ccccc2C(CC(=O)c2ccc(F)cc2)C1=O	Serotype 2		Rhinovirus	IC50		Protease		21.8 µM
COC(=O)NCCCC(C)(C)CN(C[C@@H](O)[C@H](Cc1ccccc1)NC(=O)O[C@H]1CO[C@H]2OCC[C@H]21)S(=O)(=O)c1cccc2c1OCO2			HIV-1	Ki	fluorescence	Protease		<0.001 µM
COc1ccc(-c2ccc(C(=O)O)cc2)c(-c2ccc3cc(-c4nc5cc(C(=O)O)ccc5n4C4CCCCC4)ccc3n2)c1			Hepatitis C virus	inhibition		NS5B polymerase	100 µM	100%
c1ccc(C2CCN(c3cncc(-c4csc5ccccc45)n3)CC2)cc1			Cytomegalovirus	inhibition		UL97 kinase	10 µM	>15%
COc1ccc(OC(=O)NCCCCC(C)(C)CN(C[C@@H](O)[C@H](Cc2ccccc2)NC(=O)O[C@H]2CO[C@H]3OCC[C@H]32)S(=O)(=O)c2ccc3c(c2)OCO3)cc1			HIV-1	Ki	fluorescence	Protease		<0.001 µM
OCc1ccc(-c2cncc(N3CCN(c4ccc(Cl)c(Cl)c4)CC3)n2)cc1			Cytomegalovirus	inhibition		UL97 kinase	1 µM	<50%
Cc1[nH]nc2c1C(c1cc(C#N)cc(-c3ccc(C(=O)N(C)C)s3)c1)(C(C)C)C(C#N)=C(N)O2			Plasmodium falciparum	IC50	absorbance	Serine hydroxymethyltransferase		0.27 µM
O=C(O)CCN1C(=O)C(=Cc2ccc(N3C=Cc4ccccc4C3)o2)SC1=S			Bovine viral diarrhea virus	IC50		NS5 polymerase		≤1 µM
CCC(CCC#N)CN(C[C@@H](O)[C@H](Cc1ccccc1)NC(=O)OC(C)(C)C)S(=O)(=O)c1ccc(OC)cc1			HIV-1	Ki	fluorescence	Protease		<0.001 µM
Cc1ccc(N2CCN(c3cncc(-c4ccc5ccccc5c4)n3)CC2)cc1C			Cytomegalovirus	inhibition		UL97 kinase	1 µM	<50%
CC(C)(CCCCOC(=O)Oc1ccc([N+](=O)[O-])cc1)CN(C[C@@H](O)[C@H](Cc1ccccc1)NC(=O)O[C@H]1CO[C@H]2OCC[C@H]21)S(=O)(=O)c1ccc2c(c1)OCO2			HIV-1	Ki	fluorescence	Protease		<0.001 µM
O=C1c2c(O)c(=O)c3ccccc3n2CCN1Cc1cccc(Cl)c1			HIV-1	IC50	ELISA	Integrase		0.01–0.1 µM
Cc1ccc(-c2ccc(C=C3SC(=S)N(c4ccc(C(=O)O)cc4)C3=O)o2)cc1C			Bovine viral diarrhea virus	IC50		NS5 polymerase		≤1 µM
CCOc1ccccc1-c1cncc(N2CCN(c3ccc(C(C)=O)cc3)CC2)n1			Cytomegalovirus	IC50		UL97 kinase		<100 µM
O=C(O)CN1C(=O)C(=Cc2ccc(-c3ccc(Cl)c(Cl)c3)s2)SC1=S			Bovine viral diarrhea virus	IC50		NS5 polymerase		≤1 µM
C=C(C)OC(=O)NCCCCCC(C)(C)CN(C[C@@H](O)[C@H](Cc1ccccc1)NC(=O)O[C@H]1CO[C@H]2OCC[C@H]21)S(=O)(=O)c1ccc2c(c1)OCO2			HIV-1	Ki	fluorescence	Protease		<0.001 µM

a–b is a range or a potency band. An empty or dashed field is not shown. ICn: concentration for n% inhibition. Lines come from different laboratories, so protocols vary.